Measurements as given in paper PMC9724662, “Cryo‐EM structure of the octameric pore of Clostridium perfringens β‐toxin” (2022).

Target: Clostridium perfringens β-toxin (CPB), N-terminally His6-tagged wild type (Clostridium perfringens)

Substance: Clostridium perfringens β-toxin (CPB), N-terminally His6-tagged wild type (natural protein)
- stoichiometry N: 8
